Experimental data as given in article PMC5609037, “Selective inhibition of PfA-M1, over PfA-M17, by an amino-benzosuberone derivative blocks malaria parasites development in vitro and in vivo” (Malaria Journal, 2017).

Protein sequences, listed by entry. Tags and fused reporters are not part of them. Residues count along the entry.
UniProt O96935, 192-1085 limits assumed: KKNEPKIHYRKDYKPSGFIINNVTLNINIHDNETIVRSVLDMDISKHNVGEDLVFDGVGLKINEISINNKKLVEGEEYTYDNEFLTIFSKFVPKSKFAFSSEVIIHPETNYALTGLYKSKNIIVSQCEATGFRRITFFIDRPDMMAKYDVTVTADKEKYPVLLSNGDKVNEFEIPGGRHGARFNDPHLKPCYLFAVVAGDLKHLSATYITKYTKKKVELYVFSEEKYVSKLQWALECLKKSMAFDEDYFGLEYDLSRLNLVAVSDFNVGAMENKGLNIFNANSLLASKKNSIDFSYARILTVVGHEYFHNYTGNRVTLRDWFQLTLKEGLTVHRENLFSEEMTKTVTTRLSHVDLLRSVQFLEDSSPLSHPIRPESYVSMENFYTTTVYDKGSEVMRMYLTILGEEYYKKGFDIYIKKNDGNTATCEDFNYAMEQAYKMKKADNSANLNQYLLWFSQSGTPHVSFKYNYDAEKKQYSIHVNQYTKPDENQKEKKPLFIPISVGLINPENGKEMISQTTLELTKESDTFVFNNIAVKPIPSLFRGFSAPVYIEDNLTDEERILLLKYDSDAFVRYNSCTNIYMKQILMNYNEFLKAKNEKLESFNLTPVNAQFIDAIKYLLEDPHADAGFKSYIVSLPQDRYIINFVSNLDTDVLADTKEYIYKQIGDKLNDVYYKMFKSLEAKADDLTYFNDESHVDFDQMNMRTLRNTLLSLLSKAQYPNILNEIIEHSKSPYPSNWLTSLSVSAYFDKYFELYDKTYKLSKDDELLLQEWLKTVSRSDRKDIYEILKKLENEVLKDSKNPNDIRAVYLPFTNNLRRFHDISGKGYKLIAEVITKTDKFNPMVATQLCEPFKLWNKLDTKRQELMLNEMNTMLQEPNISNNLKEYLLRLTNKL

Target: PfA-M1 (P. falciparum alanyl aminopeptidase, M1 family aminopeptidase) (Plasmodium falciparum, UniProt O96935)
Assay: Ala-pNA hydrolysis at […] nm, Ki by Dixon plots
Conditions: tested form: HCl

Q: With `NC1CCc2cccc(-c3ccccc3)c2CC1=O` (stereo not shown) as the molecule, how does the Ki read?
A: 50 nM
